Anti-infective test results gathered from many reports (values: NIAID ChemDB through PubChem).

Shared fields: growth or infection tests; agent: Candida albicans

Neighbouring rows are from separate reports. An empty or dashed field is not shown. MIC50, MIC90 and the like: level of inhibition, or share of isolates inhibited.

{"SMILES": "Oc1ccc(C=Nc2ccc(N3CCOCC3)cc2)cc1", "strain or isolate": "ATCC 2091", "read-out": "MIC", "value": "24 µg/mL"}
{"SMILES": "O=C(Nc1c(F)cccc1F)OCCCN1CCN(c2nc3ccccc3s2)CC1", "strain or isolate": "CY1124", "read-out": "MIC", "value": "0.71 µg/mL"}
{"SMILES": "CCCCCCCCCC[C@@H]1NC(=O)[C@H](CC(C)(C)C)NC(=O)[C@H](CCCCN)NC(=O)CNC(=O)[C@H]1O", "read-out": "MIC", "value": "32 µg/mL"}
{"SMILES": "OCCNc1nnc2c(cnc3ccccc32)n1", "strain or isolate": "VM-71", "read-out": "MIC", "value": "30 µg/mL"}
{"SMILES": "CCS[C@H](C)[C@](O)(Cn1cncn1)c1ccc(F)cc1F", "strain or isolate": "KB-8", "read-out": "MIC", "value": "0.1 µg/mL"}
{"SMILES": "CCC(C)n1ncn(-c2ccc(N3CCN(c4ccc(OC[C@H]5CO[C@](Cn6cncn6)(c6ccc(Cl)cc6Cl)O5)cc4)CC3)cc2)c1=O", "strain or isolate": "Fluconazole-susceptible", "read-out": "MIC50", "value": "0.12 µg/mL"}
{"SMILES": "CCC(C)CC(C)CCCCCCCCC(=O)N[C@H]1C[C@@H](O)[C@@H](O)NC(=O)[C@@H]2[C@@H](O)CCN2C(=O)[C@H]([C@H](O)CCN(CC#N)CC#N)NC(=O)[C@H]([C@H](O)Cc2ccc(O)cc2)NC(=O)[C@@H]2C[C@@H](O)CN2C(=O)[C@H]([C@@H](C)O)NC1=O", "strain or isolate": "MY1055", "read-out": "MFC", "value": "4 µg/mL"}
{"SMILES": "C=CCc1ccc(O)c(OC)c1", "read by": "turbidity", "strain or isolate": "2779", "read-out": "MIC90", "value": "485 µg/mL"}
{"SMILES": "COc1ccc(C=Nc2ccc(N3CCOCC3)cc2)cc1OC", "strain or isolate": "ATCC 2091", "read-out": "MIC", "value": "31 µg/mL"}
{"SMILES": "Nn1c(SCC(O)(Cn2cncn2)c2ccc(F)cc2F)nnc1-c1ccc(F)cc1", "read by": "broth dilution", "strain or isolate": "IRFC 37", "read-out": "MIC", "value": ">64 µg/mL"}
{"SMILES": "O=C(c1ncc(-c2c[nH]c3ccccc23)[nH]1)c1c[nH]c2cc(O)ccc12", "read-out": "MIC", "value": ">50 µg/mL"}
{"SMILES": "O=C(c1ccc(Cl)cc1)c1oc2ccc(Cl)cc2c1Cn1cncn1", "strain or isolate": "NRRL Y-27077", "read-out": "MIC", "value": "25 µg/mL"}
{"SMILES": "O=C(c1ncc(-c2c[nH]c3cc(Br)ccc23)[nH]1)c1c[nH]c2cc(O)ccc12", "read-out": "MIC", "value": ">50 µg/mL"}
{"SMILES": "O=c1ccc2nccc3c4ccccc4n1c23", "read-out": "MIC", "value": "56.1 µM"}
{"SMILES": "COc1ccc(OC)c(C(=O)CN2C(=O)S/C(=C\\c3ccc(-c4cc(=O)c5ccccc5o4)cc3)C2=O)c1", "read-out": "MIC", "value": "25 µg/mL"}
{"SMILES": "Nn1c(SCC(O)(Cn2cncn2)c2ccc(F)cc2F)nnc1-c1ccc(O)cc1", "read by": "broth dilution", "strain or isolate": "IRFC 37", "read-out": "MIC", "value": ">64 µg/mL"}
{"SMILES": "Oc1cccc(O)c1O", "read by": "broth dilution / visual reading", "strain or isolate": "20 strains", "read-out": "MIC", "value": "80 µg/mL"}
{"SMILES": "Clc1ccc(COC(Cn2ccnc2)c2ccc(Cl)cc2Cl)c(Cl)c1", "read by": "visual reading", "strain or isolate": "B311", "read-out": "MIC", "value": "4 µg/mL"}
{"SMILES": "O=C(c1ccc(Cl)cc1)c1oc2ccccc2c1Cn1ccnc1", "strain or isolate": "NRRL Y-27077", "read-out": "MIC", "value": "25 µg/mL"}
{"SMILES": "C=C(c1ccccc1OCC(C)C)n1ccnc1", "strain or isolate": "KE-2", "read-out": "MIC", "value": "25 µg/mL"}
{"SMILES": "CCCCC[C@@H]1CC[C@H](C)CCCCC(=O)N(C)[C@@H](Cc2ccc(OCCO)cc2)C(=O)O1", "strain or isolate": "TIMM1768", "read-out": "MIC", "value": "32 µg/mL"}
{"SMILES": "Cc1cc(O)c2c(c1)C(=O)c1cc(C(=O)O)cc(O)c1C2=O", "read-out": "MIC", "value": "50 µg/mL"}
{"SMILES": "CCCCCCCCCCC[C@H]1NC(=O)[C@H](CC(C)(C)C)NC(=O)[C@H](CCCCN)NC(=O)CNC(=O)[C@@H]1C", "read-out": "MIC", "value": "128 µg/mL"}
{"SMILES": "COc1ccc2c(C)c(C(=O)c3ccccc3)oc2c1", "strain or isolate": "NRRL Y-27077", "read-out": "MIC", "value": "25 µg/mL"}
{"SMILES": "COc1ccc(C=Nc2ccc(N3CCOCC3)cc2)cc1", "strain or isolate": "ATCC 2091", "read-out": "MIC", "value": "24 µg/mL"}
{"SMILES": "Brc1ccc(-c2n[nH]c3c2CCCC3)cc1", "strain or isolate": "264/624", "read-out": "MIC", "value": "7.8 µg/mL"}
{"SMILES": "COC1C2OC3(OCC45CC6C(C)CCC6C6(C=O)CC4C=C(C(C)C)C65C(=O)O)OC2OC1C3O", "read-out": "MIC", "value": "16 µg/mL"}
{"SMILES": "CO[C@H]1[C@@H](O)[C@H](O)[C@H](OC[C@@]23C[C@@H]4[C@H](C)CC[C@H]4[C@@]4(C=O)C[C@@H]2C=C(C(C)C)[C@@]34C(=O)O)O[C@@H]1C", "strain or isolate": "MY1055", "read-out": "MIC", "value": "6.25 µg/mL"}
{"SMILES": "Cc1c(C(=O)c2ccc(Cl)cc2)oc2ccc(Cl)cc12", "strain or isolate": "NRRL Y-27077", "read-out": "MIC", "value": "25 µg/mL"}
{"SMILES": "Cc1ccc(-c2n[nH]c3c2CCCC3)c(C)c1", "strain or isolate": "264/624", "read-out": "MIC", "value": "125 µg/mL"}
{"SMILES": "Nn1c(SCC(O)(Cn2cncn2)c2ccc(F)cc2F)nnc1-c1ccccc1", "read by": "broth dilution", "strain or isolate": "IRFC 36", "read-out": "MIC", "value": ">64 µg/mL"}
{"SMILES": "Cc1cc(O)c(C(C)C)cc1O", "read-out": "MBC", "value": "125 µg/mL"}
{"SMILES": "Cc1ccc(-c2nnc(SCC(O)(Cn3cncn3)c3ccc(F)cc3F)n2N)cc1", "read by": "broth dilution", "strain or isolate": "ATCC 18804", "read-out": "MIC", "value": ">64 µg/mL"}
{"SMILES": "CCCCCCCCC[C@H]1NC(=O)[C@H](CC(C)(C)C)NC(=O)[C@H](CCCN)NC(=O)CNC(=O)C1(F)F", "read-out": "MIC", "value": "64 µg/mL"}
{"SMILES": "C[C@@H](SCCCCCCCC#N)[C@](O)(Cn1cncn1)c1ccc(F)cc1F", "strain or isolate": "KB-8", "read-out": "MIC", "value": "≤0.013 µg/mL"}
{"SMILES": "Nn1c(SCC(O)(Cn2cncn2)c2ccc(Cl)cc2Cl)nnc1-c1ccccc1", "read by": "broth dilution", "strain or isolate": "PTCC 6027", "read-out": "MIC", "value": "4 µg/mL"}
{"SMILES": "COc1ccc(C(=O)CN2C(=O)S/C(=C\\c3ccc(-c4cc(=O)c5ccccc5o4)cc3)C2=O)cc1", "read-out": "MIC", "value": "25 µg/mL"}
{"SMILES": "O=C(c1ccc(Cl)cc1)c1oc2ccccc2c1Cn1cncn1", "strain or isolate": "NRRL Y-27077", "read-out": "MIC", "value": "25 µg/mL"}
{"SMILES": "O=C1c2cccc(O)c2C(=O)c2c(O)cc(CO)cc21", "read-out": "MIC", "value": "50 µg/mL"}
{"SMILES": "O=C(c1cc(O)c(O)c(Br)c1Br)c1cc(O)c(O)c(Br)c1Br", "strain or isolate": "ATCC 10231", "read-out": "MIC", "value": "100 µg/mL"}
{"SMILES": "O/N=C(\\c1ccc(Cl)cc1)c1oc2ccccc2c1Cn1cncn1", "strain or isolate": "Clinical isolate", "read-out": "MIC", "value": "25 µg/mL"}
{"SMILES": "c1ccc(-c2n[nH]c3c2CCCC3)cc1", "strain or isolate": "264/624", "read-out": "MIC", "value": "62.5 µg/mL"}
{"SMILES": "Nn1c(SCC(O)(Cn2cncn2)c2ccc(F)cc2F)nnc1-c1ccc(Cl)cc1Cl", "read by": "broth dilution", "strain or isolate": "ATCC 18804", "read-out": "MIC", "value": "32 µg/mL"}
{"SMILES": "CCc1ccc(-c2nc3cc(NC(=O)CC4CCCCC4)ccc3o2)cc1", "read-out": "MIC", "value": "25 µg/mL"}
{"SMILES": "CC(=O)N1CCN(c2ccc(OC[C@H]3CO[C@](Cn4ccnc4)(c4ccc(Cl)cc4Cl)O3)cc2)CC1", "read by": "visual reading", "strain or isolate": "B311", "read-out": "MIC", "value": "64 µg/mL"}
{"SMILES": "CCC(C)CC(C)CCCCCCCCC(=O)N[C@H]1C[C@@H](O)[C@@H](O)NC(=O)[C@@H]2[C@@H](O)CCN2C(=O)[C@H]([C@H](O)CCNC)NC(=O)[C@H]([C@H](O)Cc2ccc(O)cc2)NC(=O)[C@@H]2C[C@@H](O)CN2C(=O)[C@H]([C@@H](C)O)NC1=O", "strain or isolate": "MY1055", "read-out": "MFC", "value": "2 µg/mL"}
{"SMILES": "CCCS[C@H](C)[C@](O)(Cn1cncn1)c1ccc(F)cc1F", "strain or isolate": "KB-8", "read-out": "MIC", "value": "≤0.013 µg/mL"}
{"SMILES": "O=C(c1ccccc1)c1oc2ccccc2c1Cn1cncn1", "strain or isolate": "NRRL Y-27077", "read-out": "MIC", "value": "25 µg/mL"}
{"SMILES": "CS[C@H](C)[C@](O)(Cn1cncn1)c1ccc(F)cc1F", "strain or isolate": "KB-8", "read-out": "MIC", "value": "0.025 µg/mL"}
{"SMILES": "C/C1=C\\C=C\\C(C)C(C(C)CCC/C=C/CCCNC(N)=O)OC(=O)/C=C\\C=C\\C(C)C(O)CC(O)C(C)C(O)CCC(C)C(O)CC2(O)OC(CC(OC(=O)CC(=O)O)CC(O)CC(O)CC1O)CC(O)C2O", "strain or isolate": "ATCC 10231", "read-out": "MIC", "value": ">100 µg/mL"}
{"SMILES": "Nn1c(SCC(O)(Cn2cncn2)c2ccc(Cl)cc2Cl)nnc1-c1ccc(F)cc1", "read by": "broth dilution", "strain or isolate": "IRFC 37", "read-out": "MIC", "value": ">64 µg/mL"}
{"SMILES": "O=C(CC1CCCCC1)Nc1ccc2oc(-c3ccc(F)cc3)nc2c1", "read-out": "MIC", "value": "25 µg/mL"}
{"SMILES": "CCC(C)CC(C)CCCCCCCCC(=O)N[C@H]1C[C@@H](O)[C@@H](O)NC(=O)[C@@H]2[C@@H](O)CCN2C(=O)[C@H]([C@H](O)CCNC(C)=O)NC(=O)[C@H]([C@H](O)Cc2ccc(O)cc2)NC(=O)[C@@H]2C[C@@H](O)CN2C(=O)[C@H]([C@@H](C)O)NC1=O", "strain or isolate": "MY1055", "read-out": "MFC", "value": "4 µg/mL"}
{"SMILES": "Nc1nnc2c(cnc3ccccc32)n1", "strain or isolate": "M-3", "read-out": "MIC", "value": "30 µg/mL"}
{"SMILES": "CCc1ccc(-c2nc3cc(NC(=O)C4CCCCC4)ccc3o2)cc1", "read-out": "MIC", "value": "50 µg/mL"}
{"SMILES": "O/N=C(\\c1ccc(Cl)cc1)c1oc2ccc(Cl)cc2c1Cn1cncn1", "strain or isolate": "Clinical isolate", "read-out": "MIC", "value": "25 µg/mL"}
{"SMILES": "O=C(CCC1CCCCC1)Nc1ccc2oc(-c3ccc(F)cc3)nc2c1", "read-out": "MIC", "value": "50 µg/mL"}
{"SMILES": "CC(C)(C)c1ccc(CN(Cc2cccs2)n2ccnc2)cc1", "read-out": "MIC", "value": "67 µM"}
{"SMILES": "CCC(C)n1ncn(-c2ccc(N3CCN(c4ccc(OC[C@H]5CO[C@](Cn6cncn6)(c6ccc(Cl)cc6Cl)O5)cc4)CC3)cc2)c1=O", "read by": "visual reading", "strain or isolate": "B311", "read-out": "MIC", "value": ">64 µg/mL"}
{"SMILES": "CC(C)(O)c1cn(-c2ccc(Cl)cc2)nn1", "read by": "broth dilution", "strain or isolate": "URM 4386", "read-out": "MIC", "value": "128 µg/mL"}
{"SMILES": "CCCCCCCCC[C@@H]1CC(=O)NCC(=O)N[C@@H](CCCCN)C(=O)N[C@@H](CC(C)(C)C)C(=O)N1", "read-out": "MIC", "value": "16 µg/mL"}
{"SMILES": "COc1ccc(-c2nnc(SCC(O)(Cn3cncn3)c3ccc(Cl)cc3Cl)n2N)cc1", "read by": "broth dilution", "strain or isolate": "IRFC 36", "read-out": "MIC", "value": ">64 µg/mL"}
{"SMILES": "CCCCC1C(=O)N(c2ccccc2)N(c2ccc(O)cc2)C1=O", "read by": "resazurin", "strain or isolate": "ATCC 90028", "read-out": "MIC", "value": ">100 µM"}

A second listing of 6 rows from above:

| SMILES | read by | strain or isolate | read-out | value |
|---|---|---|---|---|
| CCCCCCCCCC[C@@H]1NC(=O)[C@H](CC(C)(C)C)NC(=O)[C@H](CCCCN)NC(=O)CNC(=O)[C@H]1O |  |  | MIC | 32 µg/mL |
| O=C(CCC1CCCCC1)Nc1ccc2oc(-c3ccc(F)cc3)nc2c1 |  |  | MIC | 50 µg/mL |
| COC1C2OC3(OCC45CC6C(C)CCC6C6(C=O)CC4C=C(C(C)C)C65C(=O)O)OC2OC1C3O |  |  | MIC | 16 µg/mL |
| c1ccc(-c2n[nH]c3c2CCCC3)cc1 |  | 264/624 | MIC | 62.5 µg/mL |
| Cc1cc(O)c2c(c1)C(=O)c1cc(C(=O)O)cc(O)c1C2=O |  |  | MIC | 50 µg/mL |
| CCc1ccc(-c2nc3cc(NC(=O)CC4CCCCC4)ccc3o2)cc1 |  |  | MIC | 25 µg/mL |